Measured values from several laboratories, pooled; numbers as filed in NIAID ChemDB.

Common to all: tests in culture; agent: Mycobacterium tuberculosis

Rows are shuffled and stem from different studies. Percent inhibition refers to the dose given; in toxicity tests it is the harm to the cells. An empty or dashed field is not shown. ECn is the concentration giving n% inhibition of infection, replication or growth. a–b is a range or a potency band. A number after MIC or MFC names an inhibition level or a share of isolates. MIC bound: limit read from a one-dose screen.

SMILES,strain,read-out,mutations,cell line,tested at,conditions,method,result
C[C@H](c1ccccc1)N1C[C@@]2(ON=C(c3ccc(Cl)cc3)[C@H]2c2ccc(Cl)cc2Cl)C2(ON=C(c3ccc(Cl)cc3)O2)[C@]2(C1)ON=C(c1ccc(Cl)cc1)[C@H]2c1ccc(Cl)cc1Cl,MDR-TB,MIC,,,,,,1.6 µM
COc1ccc(N2CCN(Cc3ccc([N+](=O)[O-])o3)CC2)cc1,RifR,MIC,Rifampicin-resistant,,,,resazurin,1.32 µM
COc1ccc2c(O)c3[n+](cc2c1OC)CCc1cc2c(cc1-3)OCO2,H37Rv,MIC,,,,,BACTEC,≥12.5 µg/mL
O=C(/C=C/c1ccc(F)cc1Cl)c1ccc(F)cc1,H37Rv,MIC,,,,7 d,MTT,32 µg/mL
CC1(C)Nc2cccc3c(N=Nc4ccc(N=Nc5ccccc5)c5ccccc45)ccc(c23)N1,PAS-R,MIC,,,,,,1 µg/mL
C[C@@H](NC(=O)[C@@H](N)CCCCN)[C@@H](Cc1ccccc1)B1OC2CC3CC(C3(C)C)[C@@]2(C)O1,H37Rv,MIC,,,,,agar,≤50 µg/mL
Cc1ccc(NC(=O)c2c(Br)c(Br)c(Br)c(Br)c2C(=O)O)cc1Cl,H37Rv,inhibition,,,12.5 µg/mL,,BACTEC,0%
O=C(/C=C/c1ccccc1)c1ccc(F)cc1,H37Rv,MIC,,,,7 d,resazurin,32 µg/mL
Cc1ccc(-c2cc(-c3ccc(Cl)cc3)nc(/N=C3\C(=O)N(CN4CCOCC4)c4ccc(Cl)cc43)n2)cc1,H37Rv,inhibition,,,6.25 µg/mL,,BACTEC,86%
CC(C)[C@H](NC(=O)CNC(=O)[C@@H]1CCCN1C(=O)[C@@H](NC(=O)OC(C)(C)C)C(C)C)C(=O)NCC(=O)OCc1ccccc1,H37Rv,inhibition,,,6.25 µg/mL,,resazurin,4%
O=[N+]([O-])c1cn2c(n1)OC[C@@H](OCc1ccc(OC(F)(F)F)cc1)C2,H37Rv-14A1 (PA-824-resistant),MIC,,,,,,>100 µM
CC(C)N=c1cc2n(-c3ccc(Cl)cc3)c3ccccc3nc-2cc1Nc1ccc(Cl)cc1,MTB12 (PZA-resistant),MIC,,,,,,0.12 µg/mL
CCCCCCCCCCC[C@@H](C[C@@H]1OC(=O)[C@H]1CCCCCC)OC(=O)[C@H](CC(C)C)NC=O,H37Rv,MIC,,,,,broth dilution,50 µg/mL
C[C@H](CB1OC2CC3CC(C3(C)C)[C@@]2(C)O1)NC(=O)[C@@H](N)CCCCN,H37Rv,MIC,,,,,,≤500 µg/mL
CC(O)C(NC(=O)C(CCCN)NC(=O)C(CC(O)CN=C(N)N)NC(=O)C(N)CCCN=C(N)N)C(=O)NC(CCCN)C(=O)NC(CC(O)CN=C(N)N)C(=O)NC(Cc1ccc(O)cc1)C(=O)O,H37Rv,MIC,,,,,BACTEC,≥12.5 µg/mL
c1ccc2c3c([nH]c2c1)-c1[nH]ncc1CCC3,H37Rv,inhibition,,,50 µg/mL,,resazurin,0%
C[C@H](N)C(=O)N[C@@H](CB1OC2CC3CC(C3(C)C)[C@@]2(C)O1)Cc1ccccc1,H37Rv,MIC,,,,,,≤50 µg/mL
O=C(/C=C/c1ccc(F)cc1Cl)c1ccccc1,H37Rv,MIC,,,,,MTT,32 µg/mL
OC[C@H]1O[C@@](CO)(O[C@H]2O[C@H](CO)[C@@H](O)[C@H](O)[C@H]2O)[C@@H](O[C@H]2O[C@H](CO)[C@@H](O)[C@H](O)[C@H]2O)[C@@H]1O,H37Rv,inhibition,,,12.5 µg/mL,,BACTEC,6%
O=C(O)c1cc(-c2ccc([N+](=O)[O-])cc2)nc2ccccc12,H37Rv,MIC,,,,,fluorescence,6.25 µg/mL
Cc1ccc(-c2cc(-c3ccc(Cl)cc3)nc(/N=C3\C(=O)N(CN(C)C)c4ccc(Br)cc43)n2)cc1,H37Rv,EC50,,,,,BACTEC,<6.25 µg/mL
CC1(C)C2CC3OB(C[C@@H](Cc4ccccc4)NC(=O)[C@@H](N)Cc4c[nH]c5ccccc45)O[C@]3(C)C1C2,H37Rv,MIC,,,,,agar,≤500 µg/mL
COC(=O)c1cc2c(o1)-c1nccc3c1c(nc1ccccc13)C2=O,H37Rv,MIC,,,,,,0.61 µM
O=C(CNC(=O)c1ccc(Cl)cc1Cl)NNC(=O)Nc1ccccc1F,H37Rv,inhibition,,,12.5 µg/mL,,BACTEC,29%
O=C1C=C(NCCO)c2nccc3c2c1nc1ccccc13,H37Rv,MIC,,,,,,1.3 µM
Nc1ccc(-c2cc(C(=O)O)c3ccccc3n2)cc1,H37Rv,MIC,,,,,fluorescence,6.25 µg/mL
CC(C)(C)C1CCC(=NNC(=O)c2ccncc2)CC1,,MIC,,,,,,0.05 µg/mL
O=C(/C=C/c1ccccc1Cl)c1ccccc1,H37Rv,MIC,,,,14 d,MTT,32 µg/mL
Cc1ccc(-c2cc(-c3ccc(Cl)cc3)nc(/N=C3\C(=O)Nc4ccccc43)n2)cc1,H37Rv,inhibition,,,6.25 µg/mL,,BACTEC,97%
CCN(CC)CCNC(=O)c1ccc(Cl)cc1,H37Rv,MIC,,,,,,50 µg/mL
COC(=O)c1cc2c(s1)C(=O)c1c(nc3ccccc3c1C)C2=O,H37Rv,MIC,,,,,,18.5 µM
C[C@H](c1ccccc1)N1C[C@@]2(ON=C(c3ccccc3)[C@H]2c2ccccc2Cl)C2(ON=C(c3ccccc3)O2)[C@]2(C1)ON=C(c1ccccc1)[C@H]2c1ccccc1Cl,H37Rv,MIC,,,,,,3.44 µM
CCCCCC1=CC(=O)C=C(OC)C12C(=O)Oc1cc(O)c(C(=O)O)c(CCCCC)c12,H37Rv,inhibition,,,12.8 µg/mL,,BACTEC,1%
C[C@H]1COc2c(N3CCN(C)CC3)c(F)cc3c(=O)c(C(=O)O)cn1c23,2923-5,MIC,,,,,,0.5 µg/mL
C[C@H](c1ccccc1)N1C/C(=C/c2ccc(Cl)cc2Cl)[C@]2(ON=C(c3ccccc3)O2)C2(C1)ON=C(c1ccccc1)[C@H]2c1ccc(Cl)cc1Cl,H37Rv,MIC,,,,,,2.06 µM
O=C(NN=C1CCCCC1)c1ccncc1,,MIC90,,,,,,2.67 µg/mL
COC(=O)c1cc2c(o1)C(=O)c1c(nc3ccccc3c1C)C2=O,H37Rv,MIC,,,,,,19.5 µM
C=C[C@H](OC(C)=O)c1ccc(OC(C)=O)cc1,Clinical isolates,MIC,,,,,,0.1–0.5 µg/mL
CCOC(=O)CCSC1=CC(=O)c2nc3ccccc3c3ccnc1c23,H37Rv,MIC,,,,,,2.1 µM
O=C(/C=C/c1c(F)cccc1Cl)c1ccccc1,H37Rv,MIC,,,,7 d,resazurin,16 µg/mL
CC1(C)N=CN=C(N)N1c1ccc(CCC(=O)Nc2ccc(S(=O)(=O)F)cc2)c(Cl)c1.CCS(=O)(=O)O,H37Rv,inhibition,,,12.5 µg/mL,,BACTEC,94%
COc1ccc(C(=O)/C=C/c2ccccc2Cl)c(F)c1,H37Rv,MIC,,,,21 d,MTT,32 µg/mL
C[C@H](c1ccccc1)N1C/C(=C/c2ccccc2Cl)[C@]2(ON=C(c3ccc(Cl)cc3)O2)C2(C1)ON=C(c1ccc(Cl)cc1)[C@H]2c1ccccc1Cl,H37Rv,MIC,,,,,,2.06 µM
Cc1ccc2[nH]c3c(c2c1)CCCc1cnn(-c2ccccc2)c1-3,H37Rv,inhibition,,,50 µg/mL,,resazurin,0%
Cc1ccc(N(C)S(=O)(=O)c2ccccc2[N+](=O)[O-])cc1,H37Rv,inhibition,,,12.5 µg/mL,,BACTEC,0%
CCCCCC1(C)Cn2cc([N+](=O)[O-])nc2O1,H37Rv-5A1 (PA-824-resistant),MIC,,,,,,>100 µM
CCN(CC)CCNC(=O)c1ccc([N+](=O)[O-])cc1,N353,MIC,,,,,,50 µg/mL
O=C(Nc1nc(-c2cccs2)cs1)c1cc(/C=C/c2ccc([N+](=O)[O-])s2)nc2ccccc12,H37Rv,MIC,,,,,fluorescence,3.125 µg/mL
N[C@@H](Cc1ccccc1)C(=O)N[C@@H](CB(O)O)Cc1ccccc1,H37Rv,MIC,,,,,agar,≤500 µg/mL
Clc1ccc(Nc2cc3nc4ccccc4n(-c4ccc(Cl)c(Cl)c4)c-3cc2=NC2CCNCC2)cc1Cl,MTB12 (PZA-resistant),MIC,,,,,,0.12 µg/mL
C[C@H](c1ccccc1)N1C/C(=C/c2ccccc2Cl)[C@]2(ON=C(c3ccccc3)O2)C2(C1)ON=C(c1ccccc1)[C@H]2c1ccccc1Cl,H37Rv,MIC,,,,,,4.56 µM
Cc1ccc2c3c([nH]c2c1)C(=O)/C(=C/O)CCC3,H37Rv,inhibition,,,50 µg/mL,,resazurin,0%
CCCCCCCCCCCC/C=N/NC(=O)c1ccncc1,,MIC90,,,,,,0.4 µg/mL
O=C(Nc1nc(-c2cccs2)cs1)c1cc(-c2cccs2)nc2ccccc12,H37Rv,MIC,,,,,fluorescence,>6.25 µg/mL
O=C1OC(c2ccccc2)=N/C1=C/c1cccc2ccccc12,H37Rv,MIC bound,,,,,BACTEC,>12.5 µg/mL
O=C(/C=C/c1ccc(F)cc1)c1ccc(O)cc1,H37Rv,MIC,,,,21 d,MTT,32 µg/mL
COc1c(N2CCNC(C)C2)c(F)cc2c(=O)c(C(=O)O)cn(C3CC3)c12,T865 streptomycin-resistant,MIC,,,,,,0.25 µg/mL
O=C(Nc1nc(-c2ccc(Br)s2)cs1)c1cc(-c2ccc([N+](=O)[O-])s2)nc2ccccc12,H37Rv,MIC,,,,,fluorescence,>6.25 µg/mL
CCN(CC)CC(O)CNc1ccc(NCC2CO2)c2c1C(=O)c1ccccc1C2=O,H37Rv,MIC bound,,,,,BACTEC,≤12.5 µg/mL
Cc1ccc([C@H]2C(c3ccccc3)=NO[C@@]23CN([C@H](C)c2ccccc2)C/C(=C\c2cccc(C)c2)[C@@]32ON=C(c3ccccc3)O2)cc1,H37Rv,MIC,,,,,,2.42 µM
CCN=c1cc2n(-c3ccc(Cl)cc3)c3ccc(Cl)cc3nc-2cc1Nc1ccc(Cl)cc1,H37Rv,MIC,,,,,,0.25 µg/mL
C1CCC2(CC1)O[C@@H]1[C@@H](O2)[C@@H](OC2O[C@@H]3COC4(CCCCC4)O[C@H]3[C@@H]3OC4(CCCCC4)O[C@@H]23)OC2COC3(CCCCC3)O[C@H]21,H37Rv,inhibition,,,12.5 µg/mL,,BACTEC,91%
Cc1ccc(C(=O)/C=C/c2ccccc2)c(F)c1,H37Rv,MIC,,,,,MTT,32 µg/mL
CO[C@H]1C[C@@H]2\C=C(C)/C=C/C=C\C(=O)N[C@H](c3ccccc3)C/C=C/CC[C@H](O)CC(=O)C2=C1O,H37Rv,inhibition,,,12.5 µg/mL,,BACTEC,100%
C[C@H](c1ccccc1)N1C[C@@]2(ON=C(c3ccccc3)[C@H]2c2ccccc2Br)C2(ON=C(c3ccccc3)O2)[C@]2(C1)ON=C(c1ccccc1)[C@H]2c1ccccc1Br,H37Rv,MIC,,,,,,3.5 µM
NC(=O)/C(N=Nc1ccccc1)=N/Nc1ccccc1,H37Rv,inhibition,,,12.5 µg/mL,,BACTEC,48%
CCN(CC)CCNC(=O)c1cccc([N+](=O)[O-])c1,N353,MIC,,,,,,50 µg/mL
Cc1ccc(N=Nc2c(O)c(C(=O)Nc3ccccc3)cc3ccccc23)c([N+](=O)[O-])c1,H37Rv,MIC bound,,,,,BACTEC,>12.5 µg/mL
Cc1ccc(-c2cc(-c3ccc(Cl)cc3)nc(/N=C3\C(=O)N(CN4CCCCC4)c4ccc(Cl)cc43)n2)cc1,H37Rv,inhibition,,,6.25 µg/mL,,BACTEC,87%
NNC(=O)Cc1cccc2ccc(Cl)cc12,H37Rv,inhibition,,,12.5 µg/mL,,BACTEC,-21%
CCCCCCCCSC1=CC(=O)c2nc3ccccc3c(C)c2C1=O,H37Rv,MIC,,,,,,17 µM
CC(=O)Oc1c(C)c2c(O)c3c1C1=C(OCOC1=C(C)C3=O)/C(C)=C/[C@@](C)(O)[C@H](O)[C@@H](C)[C@@H](O)[C@H](C(=O)O)[C@H](O)[C@H](C)C(O)[C@H](C)/C=C\C=C(/C)C(=O)N2,TAC-R,MIC,,,,,,0.4 µg/mL
OO,H19,EC50,,,,,,>0.0005 µM
Cc1c([N+](=O)[O-])oc2ccc3ccccc3c12,H37Rv,MIC,,VERO,,,,3.13 µg/mL
NC(=O)c1cnccn1,Isolate 97-720,MIC,,,,,,900 µg/mL
CC1CCCN(CC(O)CN2CCN(CC(O)CN3CCCC(C)C3)CC2)C1,H37Rv,MIC,,,,,BACTEC,≥12.8 µg/mL
C[C@H](c1ccccc1)N1C/C(=C\c2ccc(Cl)cc2)[C@@]2(ON=C(c3ccccc3)O2)[C@@]2(C1)ON=C(c1ccccc1)[C@@H]2c1ccc(Cl)cc1,H37Rv,MIC,,,,,,18.2 µM

The last 7 rows once more:

SMILES | strain | read-out | mutations | cell line | tested at | conditions | method | result
CCCCCCCCSC1=CC(=O)c2nc3ccccc3c(C)c2C1=O | H37Rv | MIC |  |  |  |  |  | 17 µM
CC(=O)Oc1c(C)c2c(O)c3c1C1=C(OCOC1=C(C)C3=O)/C(C)=C/[C@@](C)(O)[C@H](O)[C@@H](C)[C@@H](O)[C@H](C(=O)O)[C@H](O)[C@H](C)C(O)[C@H](C)/C=C\C=C(/C)C(=O)N2 | TAC-R | MIC |  |  |  |  |  | 0.4 µg/mL
OO | H19 | EC50 |  |  |  |  |  | >0.0005 µM
Cc1c([N+](=O)[O-])oc2ccc3ccccc3c12 | H37Rv | MIC |  | VERO |  |  |  | 3.13 µg/mL
NC(=O)c1cnccn1 | Isolate 97-720 | MIC |  |  |  |  |  | 900 µg/mL
CC1CCCN(CC(O)CN2CCN(CC(O)CN3CCCC(C)C3)CC2)C1 | H37Rv | MIC |  |  |  |  | BACTEC | ≥12.8 µg/mL
C[C@H](c1ccccc1)N1C/C(=C\c2ccc(Cl)cc2)[C@@]2(ON=C(c3ccccc3)O2)[C@@]2(C1)ON=C(c1ccccc1)[C@@H]2c1ccc(Cl)cc1 | H37Rv | MIC |  |  |  |  |  | 18.2 µM